Earlier results, collected in patent US6475491B1, “Treatment of HIV and other viral infections using combinatorial therapy” (priority 1995, dated 2002).
Entries after “also recorded” stand apart in the source; their conditions may differ.

System: HIV-1LA1
Details: control peptides; cited from earlier work

Compound	activity previously shown in the cell-free virus infection assay
CC[C@H](C)[C@H](NC(=O)[C@H](C)NC(=O)[C@@H](NC(=O)[C@@H](NC(=O)[C@H](CCCNC(=N)N)NC(=O)[C@H](C)NC(=O)[C@H](CCC(N)=O)NC(=O)[C@H](CC(C)C)NC(=O)[C@H](CC(N)=O)NC(=O)[C@H](CCCCN)NC(=O)[C@@H](NC(=O)CNC(=O)[C@H](Cc1c[nH]c2ccccc12)NC(=O)[C@@H](NC(=O)[C@@H](NC(=O)[C@H](CC(C)C)NC(=O)[C@H](CCCNC(=N)N)NC(=O)[C@H](CC(C)C)NC(=O)[C@H](CCSC)NC(=O)[C@H](CCC(=O)O)NC(=O)[C@H](CCC(N)=O)NC(=O)[C@H](CCC(N)=O)NC(=O)[C@H](CCCNC(=N)N)NC(=O)[C@H](CCCCN)NC(=O)[C@@H](NC(=O)[C@@H](NC(=O)[C@H](CC(=O)O)NC(=O)[C@H](CC(C)C)NC(=O)[C@H](CC(C)C)NC(=O)[C@H](CCC(N)=O)NC(=O)[C@H](CCC(N)=O)NC(C)=O)C(C)C)C(C)C)[C@@H](C)O)C(C)C)[C@@H](C)O)C(C)C)[C@@H](C)O)C(=O)N[C@@H](CCC(=O)O)C(=O)N[C@@H](CCCCN)C(=O)N[C@@H](Cc1ccc(O)cc1)C(=O)N[C@@H](CC(C)C)C(=O)N[C@@H](CCCCN)C(=O)N[C@@H](CC(=O)O)C(=O)N[C@@H](CCC(N)=O)C(N)=O [DP-118]	active; also recorded: inhibits HIV-1 cell free virus infection
CC[C@H](C)[C@H](NC(=O)CNC(=O)[C@H](Cc1c[nH]c2ccccc12)NC(=O)[C@@H](NC(=O)[C@@H](NC(=O)[C@H](CC(C)C)NC(=O)[C@H](CCC(N)=O)NC(=O)[C@H](CC(C)C)NC(=O)[C@H](CC(C)C)NC(=O)[C@H](Cc1c[nH]cn1)NC(=O)[C@H](CCC(N)=O)NC(=O)[C@H](CCC(N)=O)NC(=O)[C@H](C)NC(=O)[C@H](CCC(=O)O)NC(=O)[C@@H](NC(=O)[C@H](C)NC(=O)[C@H](CCCNC(=N)N)NC(=O)[C@H](CC(C)C)NC(=O)[C@H](CC(C)C)NC(=O)[C@H](CC(N)=O)NC(=O)[C@H](CC(N)=O)NC(=O)CNC(=O)CNC(=O)[C@H](CS)NC(C)=O)[C@@H](C)CC)[C@@H](C)O)C(C)C)C(=O)N[C@@H](CCCCN)C(=O)N[C@@H](CCC(N)=O)C(=O)N[C@@H](CC(C)C)C(=O)N[C@@H](CCC(N)=O)C(=O)N[C@@H](C)C(=O)N[C@@H](CCCNC(=N)N)C(=O)N[C@H](C(=O)N[C@@H](CC(C)C)C(=O)N[C@@H](C)C(=O)N[C@H](C(=O)N[C@@H](CCC(=O)O)C(=O)N[C@@H](CCCNC(=N)N)C(=O)N[C@@H](Cc1ccc(O)cc1)C(=O)N[C@@H](CC(C)C)C(=O)N[C@@H](CCCCN)C(=O)N[C@@H](CC(=O)O)C(=O)N[C@@H](CCC(N)=O)C(N)=O)C(C)C)[C@@H](C)CC [DP-125]	active; also recorded: inhibit HIV-1 cell free virus infection
